This assay relates to NF-κB. The experiment in a line: Effect of reducing agents DTT and DMP on inhibition of TNF-induced NF-κB activation, EMSA. To be noted: DTT 100 μM or DMP 100 μM, curcumin 50 μM or PAO 2.4 μM, 60 minutes, then 0.1 nM TNF 30 minutes, FIG. 5. It counts as cell-based, human.

As for `O=[As]c1ccccc1` (stereo not shown), the “reversal by DTT and DMP of the inhibition of TNF-induced NF-κB activation” value is listed as “completely reversed”.

Values taken from patent US5891924A, “Curcumin (diferuloylmethane) inhibition of NFκB activation” (Research Development Foundation, priority 1996, dated 1999).
